# According to PubChem BioAssay AID1619 (SRMLSC, 2009):
# Sequences of proteins named here, by UniProt entry; tags and fusion partners are left off.
# UniProt Q8IL11, whole entry: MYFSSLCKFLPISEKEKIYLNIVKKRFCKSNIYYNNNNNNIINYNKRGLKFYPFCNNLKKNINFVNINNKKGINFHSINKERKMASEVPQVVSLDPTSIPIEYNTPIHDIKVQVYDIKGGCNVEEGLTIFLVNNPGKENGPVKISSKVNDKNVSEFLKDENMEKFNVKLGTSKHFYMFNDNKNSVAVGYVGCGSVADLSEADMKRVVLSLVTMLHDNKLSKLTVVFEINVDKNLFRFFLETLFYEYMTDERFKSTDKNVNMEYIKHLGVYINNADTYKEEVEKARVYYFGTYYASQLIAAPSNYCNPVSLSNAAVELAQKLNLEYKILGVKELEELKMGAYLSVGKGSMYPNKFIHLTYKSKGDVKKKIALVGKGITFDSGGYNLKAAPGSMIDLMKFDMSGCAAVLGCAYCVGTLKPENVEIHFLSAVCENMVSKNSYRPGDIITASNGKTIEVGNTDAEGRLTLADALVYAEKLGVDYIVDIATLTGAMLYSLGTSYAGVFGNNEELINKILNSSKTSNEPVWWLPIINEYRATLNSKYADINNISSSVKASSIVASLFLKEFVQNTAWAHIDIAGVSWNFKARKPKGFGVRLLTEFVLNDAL
# This is one part of the list. Measured potencies and affinities stand elsewhere. Active and inactive are the calls of the source.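 The calls were made as follows: active = compound inhibiting the enzyme by more than half at any dose during confirmatory dose-response retesting; inconclusive = strong single-dose inhibitors picked by rank but not retested; inactive = the rest.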
# Target: Leucine aminopeptidase (Plasmodium falciparum (isolate 3D7)) (UniProt Q8IL11)
# Assay: P. falciparum M17LAP inhibitors, primary screen, biochemical, fluorogenic H-Leu-NHMec substrate, 1536-well (AID 1619);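 also: plate controls were full reaction with DMSO carrier for no effect and no enzyme background for full effect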
# Conditions: recombinant M17LAP, H-Leu-NHMec fluorogenic kinetic assay; at 30 µM; active compounds read high
row,Structure (SMILES),inhibition
1,O=[N+]([O-])c1cc([N+](=O)[O-])c(-n2nnc3ccccc32)c([N+](=O)[O-])c1,inactive: 6.57%
2,CP(=O)(Nc1ccccn1)Oc1ccc(Cl)cc1 (stereo not drawn),inactive: 1.74%
3,CCOP(C)(=S)SCC(=O)NC(C)C(=O)O (stereo not drawn),inactive: 0.15%
4,CCOC(=O)c1ccc(NP(C)(=O)Oc2ccc(OC)cc2)cc1 (stereo not drawn),inactive: 11.2%
5,CP(=O)(NC(=O)Nc1ccccc1)Oc1ccccc1 (stereo not drawn),inactive: -6.34%
6,CCc1ccc(OP(C)(=O)N2CCN(c3ccc([N+](=O)[O-])cc3)CC2)cc1 (stereo not drawn),inactive: 7.93%
7,Cc1cc(C)cc(OP(C)(=O)Nc2ccc(SC(F)(F)F)cc2)c1 (stereo not drawn),inactive: 0.93%
8,Cc1cccc(C)c1OP(C)(=O)Nc1ccc(SC(F)(F)F)cc1 (stereo not drawn),inactive: 16%
9,CP(=O)(Nc1ccc(SC(F)(F)F)cc1)Oc1ccc(Cl)cc1 (stereo not drawn),inactive: -14.2%
10,CP(=O)(Oc1ccccc1)OC(c1ccccc1)C(F)(F)F (stereo not drawn),inactive: 0.66%
11,COc1ccccc1OP(C)(=O)Nc1ccccc1 (stereo not drawn),inactive: -2.6%
12,CP(=O)(Nc1ccccc1Br)Oc1ccccc1 (stereo not drawn),inactive: -3.67%
13,CP(=S)(Nn1cnnc1)Oc1ccccc1 (stereo not drawn),inactive: 4.94%
14,COc1ccccc1OP(C)(=O)Nc1cc(Cl)ccc1C (stereo not drawn),inactive: 3.84%
15,COc1ccc(OP(C)(=O)Nc2cccc(F)c2)cc1 (stereo not drawn),inactive: 2.99%
16,Cc1cc(C)cc(OP(C)(N)=O)c1 (stereo not drawn),inactive: 2.38%
17,CCOC(=O)c1ccc(NP(C)(=O)Oc2ccccc2)cc1 (stereo not drawn),inactive: -17.6%
18,COc1ccccc1OP(C)(=O)Nc1ccc(C)cc1 (stereo not drawn),inactive: -7.79%
19,Cc1ccc(NP(C)(=O)Oc2ccccc2)c(C)c1 (stereo not drawn),inactive: 14.1%
20,CC(C)(C)c1ccc(OP(C)(=O)Nc2ccc(SC(F)(F)F)cc2)cc1 (stereo not drawn),inactive: -1.58%
21,Cc1cccc(C)c1OP(C)(N)=O (stereo not drawn),inactive: -4.57%
22,O=[N+]([O-])c1ccc2c(c1)C=Nc1ccccc1O2,inactive: 2.69%
23,CCN(CC)CCCOC(=O)C(O)(c1ccccc1)c1ccccc1,inactive: -0.12%
